The record followed here is paper PMC8362950 (PLoS ONE, 2021).

Holding throughout (experiment): purified protein
Holding throughout (conditions): pH 7.4

Data set [1] concerns NC(=O)c1ccc[n+]([C@@H]2O[C@H](COP(=O)(O)OP(=O)(O)OC[C@H]3O[C@@H](n4cnc5c(N)ncnc54)[C@H](O)[C@@H]3O)[C@@H](O)[C@H]2O)c1.
The next data set relates to O=C(O)C[C@H](O)C(=O)O.
Data set [2] concerns NC(=O)C1=CN([C@@H]2O[C@H](COP(=O)(O)OP(=O)(O)OC[C@H]3O[C@@H](n4cnc5c(N)ncnc54)[C@H](O)[C@@H]3O)[C@@H](O)[C@H]2O)C=CC1.
For another data set, the system named is O=C(O)CC(=O)C(=O)O.

Consider “6xHis-CBU0823 (Coxiella burnetii RSA 493)”, for which the Km was 0.31 (95% CI 0.03-undefined) mM in data set [1] and 0.40 (95% CI 0.01–1.25) mM in the data set on O=C(O)C[C@H](O)C(=O)O.

As for GST-CBU1241 (Coxiella burnetii RSA 493), the Km in data set [2] is 0.12 (95% CI 0.06–0.22) mM; in the data set on O=C(O)CC(=O)C(=O)O, 0.11 (95% CI 0.07–0.17) mM.
